In patent US5861501:
pIC50, pKd: −log10 of the molar value.

Experiments:
[1] = test system: influenza endonuclease (purified viral ribonucleoprotein, low-pH treated; polymerase-associated cap-dependent endonuclease) (Influenza virus); experiment: inhibition; details: 5' m7Gppp cap; 2'-OMe on first transcribed G; 3'-terminal 3'-dA; inhibition of capped 19-mer cleavage; 100 mM Tris-Cl pH 8, 50 mM KCl, 5 mM DTT, MgCl2 (printed 250 mM)
[2] = test system: influenza endonuclease (purified viral ribonucleoprotein, low-pH treated; polymerase-associated cap-dependent endonuclease) (Influenza virus); experiment: filter; details: 5' m7Gppp cap; 2'-OMe on first transcribed G; 3'-terminal 3'-dA; 100 mM Tris-Cl pH 8.0, 50 mM KCl, 0.25 mM MgCl2, 5 mM DTT, 25 C; 50 nM uncapped triphosphate 10-mer included; 95% displaced by unlabeled capped 10-mer

## GGUAUUAAUA [capped 10-mer]
[1]
  pIC50: 10.08
[2]
  pKd: 9.77
